Pooled drug test results. Numbers come from NIAID ChemDB, via PubChem.

All rows: tests in culture; species: Mycobacterium kansasii; endpoint: MIC

Lines come from different laboratories, so protocols vary. Blank or dashed fields: not listed here.

compound,setting,read by,strain,value
O=C(Oc1cc(Cl)ccc1C(=O)Nc1ccc(C(F)(F)F)cc1)c1cnccn1,7 d,,235/80,1 µM
O=C(OCc1ccccc1)N1CCC[C@H]1c1cnc(-c2ccc([N+](=O)[O-])cc2)[nH]1,21 d,,My 6509/96,62.5 µM
N/C(=N\N=C\c1cc(Cl)cc(Cl)c1O)SCc1cccc(Cl)c1,21 d,broth dilution,ATCC 12478,62.5 µM
C[C@@H](NC(=O)OCc1ccccc1)c1cnc(-c2ccccc2)[nH]1,21 d,,My 6509/96,125 µM
Fc1cccc(-n2c(=S)oc3ccc(Br)cc3c2=S)c1,14 d,,6509/96,8 µM
N/C(=N\N=C\c1ccccc1)SCc1cccc(Cl)c1,14 d,broth dilution,ATCC 12478,62.5 µM
O=C(Nc1cccc(Br)c1)c1cc(Cl)ccc1OS(=O)(=O)c1ccccc1,21 d,,235/80,16 µM
C[C@H](NC(=O)OCc1ccccc1)c1cnc(-c2ccccc2)[nH]1,14 d,,My 235/80,250 µM
S=c1oc2ccc(Br)cc2c(=S)n1-c1cccc(Cl)c1,21 d,,6509/96,4 µM
C[C@H](NC(=O)OCc1ccccc1)c1cnc(-c2ccc([N+](=O)[O-])cc2)[nH]1,14 d,,My 6509/96,>125 µM
Cc1ccc(-n2c(=S)oc3ccc(Br)cc3c2=S)cc1,21 d,,6509/96,4 µM
C[C@@H](NC(=O)OCc1ccccc1)c1cnc(-c2ccc([N+](=O)[O-])cc2)[nH]1,14 d,,My 235/80,>125 µM
O=C(Nc1ccc(C(F)(F)F)cc1)c1ccc(Cl)cc1OS(=O)(=O)c1ccccc1,21 d,,235/80,4 µM
N/C(=N\N=C\c1cc(Cl)ccc1O)SCc1ccc(F)cc1,21 d,broth dilution,ATCC 12478,32 µM
O=c1oc2ccc(Cl)cc2c(=S)n1-c1ccc(F)cc1,14 d,,6509/96,16 µM
O=C(Oc1cc(Cl)ccc1C(=O)Nc1cccc(Br)c1)c1cnccn1,7 d,,6509/96,2 µM
O=C(Nc1cccc(Cl)c1)c1cc(Cl)ccc1OS(=O)(=O)c1ccccc1,14 d,,235/80,16 µM
O=C(N[C@@H](Cc1ccccc1)c1cnc(-c2ccc([N+](=O)[O-])cc2)[nH]1)OCc1ccccc1,21 d,,My 235/80,>62.5 µM
COc1ccc2oc(=S)n(-c3ccc(Br)cc3)c(=S)c2c1,21 d,,6509/96,32 µM
O=C(Oc1ccc(Cl)cc1C(=O)Nc1cccc(F)c1)c1cnccn1,14 d,,235/80,4 µM
O=c1oc2ccc(Cl)cc2c(=S)n1-c1cccc(F)c1,14 d,,My 235/80,16 µM
O=C(Oc1ccc(Cl)cc1C(=O)Nc1cccc(Cl)c1)c1cnccn1,21 d,,235/80,4 µM
Cc1ccc(CS/C(N)=N/N=C/c2cc(Cl)ccc2O)cc1,14 d,broth dilution,ATCC 12478,62.5 µM
O=C(Nc1cccc(C(F)(F)F)c1)c1ccc(Cl)cc1OS(=O)(=O)c1ccccc1,7 d,,235/80,125 µM
COc1ccc2oc(=O)n(-c3ccc(Cl)cc3)c(=S)c2c1,21 d,,My 235/80,16 µM
O=C(Oc1cc(Cl)ccc1C(=O)Nc1cccc(F)c1)c1cnccn1,21 d,,235/80,8 µM
O=C(Nc1ccc(Br)cc1)c1ccc(Br)cc1OS(=O)(=O)c1ccccc1,7 d,,6509/96,4 µM

For reference, 2 entries again:

compound	setting	read by	strain	value
S=c1oc2ccc(Br)cc2c(=S)n1-c1cccc(Cl)c1	21 d		6509/96	4 µM
O=C(OCc1ccccc1)N1CCC[C@H]1c1cnc(-c2ccc([N+](=O)[O-])cc2)[nH]1	21 d		My 6509/96	62.5 µM